Compound potency records, mixed from different reports. Data source: NIAID ChemDB in PubChem.

Shared fields: growth or infection tests

A number after MIC or MFC names an inhibition level or a share of isolates.

structure | organism | read by | strain | measure | cell line | value
CC(=O)NC[C@H]1CN(c2ccc(-c3csc(C)c3)c(F)c2)C(=O)O1 | Enterococcus faecalis |  | UC9217 | MIC |  | 2 µg/mL
CCNc1c(F)cc2c(=O)c(C(=O)O)cn(-c3cc(N)c(F)cc3F)c2c1C | Enterococcus faecium |  | W1140 | MIC |  | 2 µg/mL
O=C1N(CCCCCCOc2ccc(C(F)(F)F)cc2)CCN1c1ccncc1 | Enterovirus | plaque count | 7/(1743) genotype B | EC50 | RD | 0.35 µM
CC(=O)Oc1ccc(CCCOc2cc(C)c(-c3noc(C)n3)c(C)c2)nn1 | Enterovirus | cytopathic effect |  | EC50 | HeLa | 0.033–0.659 µg/mL
COC(=O)N1CC=C(c2ccc(C3=NO[C@H](CNC(=O)O)C3)cc2)CC1 | Enterococcus faecalis |  | UC9217 | MIC |  | >16 µg/mL
CN(C)c1cc(NC(=O)CNC(C)(C)C)c(O)c2c1C[C@H]1C[C@H]3[C@H](N(C)C)C(=O)C(C(N)=O)=C(O)[C@@]3(O)C(=O)C1=C2O | Enterococcus faecalis |  | 20 strains (vancomycin-resistant) | MIC90 |  | 0.12 µg/mL
CCOC(=O)c1nc(-c2ccc(N3C[C@H](CNC(C)=O)OC3=O)cc2F)ns1 | Enterococcus faecalis |  | UC9217 | MIC |  | >16 µg/mL
O=C(O)NC[C@H]1CC(c2cc(F)c(N3CCN(C(=O)CO)CC3)c(F)c2)=NO1 | Enterococcus faecalis |  | UC9217 | MIC |  | 2 µg/mL
COCc1ccc(CCCOc2cc(C)c(-c3noc(C)n3)c(C)c2)nn1 | Enterovirus | cytopathic effect |  | EC50 | HeLa | 0.033–0.659 µg/mL
O=C(NNC(=O)Nc1cc(C(F)(F)F)cc(C(F)(F)F)c1)Nc1ccccc1 | Enterococcus faecium |  | EF12 (vancomycin-resistant) | MIC |  | >200 µM
O=C(O)NC[C@H]1CC(c2ccc(N3CCOCC3)c(F)c2)=NO1 | Enterococcus faecalis |  | UC9217 | MIC |  | 8 µg/mL
O=C(Nc1cccc(C2=NCCN2)c1)Nc1cccc(C2=NCCN2)c1 | Enterococcus faecium |  | EF12 (vancomycin-resistant) | MIC |  | 189 µM
CC(CCOc1ccc(-c2ccc(Cl)cc2)cc1)CCN1CCN(c2ccncc2)C1=O | Enterovirus | cytopathic effect | Clinical isolate 71 (2231) genotype C | EC50 | RD | 0.038 µM
COc1ccc(-c2ccc(N3CC(CNC(C)=O)CC3=O)cc2)ccc1=O | Enterococcus faecalis |  | UC9217 | MIC |  | >64 µg/mL
O=C(NNC(=O)Nc1ccc(Cl)c(Cl)c1)Nc1ccc(Cl)c(Cl)c1 | Enterococcus faecalis |  | STD44 | MIC |  | 9.8 µM
Cc1c(NCCCO)c(F)cc2c(=O)c(C(=O)O)cn(-c3cc(N)c(F)cc3F)c12 | Enterococcus faecium |  | W1140 | MIC |  | 4 µg/mL
CC(=O)NC[C@H]1CN(c2ccc(-c3cnc(C(C)=O)s3)c(F)c2)C(=O)O1 | Enterococcus faecalis |  | UC9217 | MIC |  | 0.5 µg/mL
O=C(CC(=O)Nc1cccc(C(F)(F)F)c1)Nc1cccc(C(F)(F)F)c1 | Enterococcus faecium |  | EF12 (vancomycin-resistant) | MIC |  | >300 µM
Cc1cc(CCCCCOc2c(Cl)cc(C3=NCCO3)cc2Cl)on1 | Enterovirus | plaque count | Woodruff (CVB3) | EC50 | VERO | 0.044 µg/mL
O=C(NNC(=O)Nc1ccccc1C(F)(F)F)Nc1cc(C(F)(F)F)cc(C(F)(F)F)c1 | Enterococcus faecium |  | EF12 (vancomycin-resistant) | MIC |  | >300 µM
Cc1cc(OCCCc2ccc(I)nn2)cc(C)c1-c1noc(C(F)F)n1 | Enterovirus | cytopathic effect |  | EC50 | HeLa | 0.033–0.659 µg/mL
Cc1c(N)c(F)cc2c(=O)c(C(=O)O)cn(-c3cc(N)c(F)cc3F)c12 | Enterococcus faecium |  | W1418 | MIC |  | >64 µg/mL
O=C(Nc1cc(C(F)(F)F)cc(C(F)(F)F)c1)NS(=O)(=O)c1ccc(OC(F)(F)F)cc1 | Enterococcus faecalis |  | STD44 | MIC |  | 50 µM

The last 3 rows once more:

| structure | organism | read by | strain | measure | cell line | value |
|---|---|---|---|---|---|---|
| Cc1cc(OCCCc2ccc(I)nn2)cc(C)c1-c1noc(C(F)F)n1 | Enterovirus | cytopathic effect |  | EC50 | HeLa | 0.033–0.659 µg/mL |
| Cc1c(N)c(F)cc2c(=O)c(C(=O)O)cn(-c3cc(N)c(F)cc3F)c12 | Enterococcus faecium |  | W1418 | MIC |  | >64 µg/mL |
| O=C(Nc1cc(C(F)(F)F)cc(C(F)(F)F)c1)NS(=O)(=O)c1ccc(OC(F)(F)F)cc1 | Enterococcus faecalis |  | STD44 | MIC |  | 50 µM |

a–b is a range or a potency band. ECn is the concentration giving n% inhibition of infection, replication or growth. Rows are shuffled and stem from different studies. Blank or dashed fields: not listed here.